Results as given in patent US11839610B2 (priority 2022, dated 2023).

System: ACE2-293T cells

Substance: Cycleanine
- cytotoxic to the ACE2-293T cells (in words): caused no damages
- Cell Viability (%) (human): 98.59 ± 1.98%
